Pooled drug test results. Numbers come from NIAID ChemDB, via PubChem.

Shared fields: growth or infection tests; agent: HIV-1; read-out: EC50

Two numbers with a dash give a range or band.

smiles | strain | changes | cell line | read by | value
Cc1cccc(Cc2cc(/C(O)=C/C(=O)C(=O)O)c(=O)n(Cc3cccc(Cl)c3F)c2)c1 |  |  | MAGI |  | 1.4 µM
O=C(CCCCCCCCCCC(=O)Nc1cc(S(=O)(=O)O)c2cccc(S(=O)(=O)O)c2c1)Nc1cc(S(=O)(=O)O)c2cccc(S(=O)(=O)O)c2c1 | IIIB |  | MOLT-4/HIV-1(IIIB) + MOLT-4 | syncytia | 92.5 µM
O=C(O)C(=O)/C=C(\O)c1cc(Cc2ccc(F)cc2)cn(Cc2c(F)cccc2F)c1=O |  |  | MAGI |  | 1.4 µM
CC(=O)N[C@@H](CSC(C)=O)C(=O)NCCSC(=O)C(C)C | BaL |  | MDM | RT activity | 45 µM
O=C(Nc1sccc1S(=O)(=O)c1ccc(Cl)cc1)C(F)(F)C(F)(F)C(F)(F)F | IIIB |  | CEM + CEM/O | cytopathic effect / MTT | >8 µg/mL
CC(C)C1=C2[C@H]3CC[C@@H]4[C@@]5(C)CC[C@H](OC(=O)[C@H]6C[C@@H](C(=O)O)C6(C)C)C(C)(C)[C@@H]5CC[C@@]4(C)[C@]3(C)CC[C@@]2([C@@H](O)CNC(=O)C(C)(C)NC(=O)c2ccc(Cl)cc2OCCN2CCCCC2)CC1=O | 92HT599 |  | MT-2 | p24 / ELISA | <1 µM
CC(=O)N[C@@H](CS)C(=O)NCCSC(=O)C(C)C | BaL |  | MDM | RT activity | 110 µM
O=C(CCCCCCCCCCC(=O)Nc1cc(S(=O)(=O)O)cc2cc(S(=O)(=O)O)cc(O)c12)Nc1cc(S(=O)(=O)O)cc2cc(S(=O)(=O)O)cc(O)c12 | IIIB |  | MOLT-4/HIV-1(IIIB) + MOLT-4 | syncytia | 47.6 µM
CC(C)C1=C2[C@H]3CC[C@@H]4[C@@]5(C)CC[C@H](OC(=O)[C@H]6C[C@@H](C(=O)O)C6(C)C)C(C)(C)[C@@H]5CC[C@@]4(C)[C@]3(C)CC[C@@]2(CC(=O)NCc2ccc3nc[nH]c3c2)CC1=O | 92HT599 |  | MT-2 | p24 / ELISA | <1 µM
Cc1cn([C@H]2C[C@H](F)[C@@H](CO)O2)c(=O)[nH]c1=O | BaL |  | MAGI | single cycle | <0.1 µg/mL
[N-]=[N+]=N[C@]1(CO)O[C@@H](n2cnc3c(=O)[nH]cnc32)C[C@@H]1O |  |  | A301 + A3.01 |  | 0.07 µM
Cc1ccc(C)c(CS(=O)(=O)c2cccc[n+]2[O-])c1 | IIIB |  | CEM/MOLT-4 + CEM | syncytia | >20 µg/mL
CC(C)C1=C2[C@H]3CC[C@@H]4[C@@]5(C)CC[C@H](OC(=O)[C@H]6C[C@@H](C(=O)O)C6(C)C)C(C)(C)[C@@H]5CC[C@@]4(C)[C@]3(C)CC[C@@]2(CC(=O)NCC(C)(C)NC(=O)c2nc3ccccc3[nH]2)CC1=O | 92HT599 |  | MT-2 | p24 / ELISA | <1 µM
CC(C)=CCOc1cc(NC(=S)c2ccsc2C)ccc1Cl | UC040-R (RT-Y181C) | RT-Y181C | CEM + CEM-SS | cytopathic effect / XTT | 0.1 µM
CC(=O)Nc1sc(Br)cc1S(=O)(=O)c1ccc(Cl)cc1 | IIIB |  | CEM + CEM/O | cytopathic effect / MTT | >200 µg/mL
CC(=O)N[C@@H](CSC(C)=O)C(=O)NCCSC(=O)C(C)(C)C | BaL |  | MDM | RT activity | <150 µM
Cc1cn([C@H]2C=C[C@@H](CO)O2)c(=O)[nH]c1=S | LAV |  | CEM-F + CEM | p24 / ELISA | >10 µg/mL
CC(C)(C)NC(=O)[C@@H]1CN(Cc2cccnc2)CCN1C[C@@H](O)C[C@@H](Cc1ccccc1)C(=O)N[C@H]1c2ccccc2C[C@H]1O | LAI |  | HEK293T | p24 / ELISA | 0.0013–0.0032 µM
Cc1nc(C)c(C(=O)NC(C)(C)C(=O)NC[C@H](O)[C@@]23CC[C@]4(C)[C@H](CC[C@@H]5[C@@]6(C)CC[C@H](OC(=O)[C@H]7C[C@@H](C(=O)O)C7(C)C)C(C)(C)[C@@H]6CC[C@]54C)C2=C(C(C)C)C(=O)C3)s1 | 92HT599 |  | MT-2 | p24 / ELISA | <1 µM
CC(=O)Nc1sccc1S(=O)(=O)c1ccccc1[N+](=O)[O-] | IIIB |  | CEM + CEM/O | cytopathic effect / MTT | >1.6 µg/mL
CC(C)[C@H](NC(=O)[C@H](Cc1cccc2ccccc12)CS(=O)(=O)C(C)(C)C)C(=O)N[C@@H](Cc1ccccc1)[C@@H](O)[C@@H](N=[N+]=[N-])[C@H](Cc1ccccc1)NC(=O)[C@@H](NC(=O)[C@H](Cc1cccc2ccccc12)CS(=O)(=O)C(C)(C)C)C(C)C | D34 |  | PBLC | p24 | 100 µM
CC(C)C1=C2[C@H]3CC[C@@H]4[C@@]5(C)CC[C@H](OC(=O)[C@H]6C[C@@H](C(=O)O)C6(C)C)C(C)(C)[C@@H]5CC[C@@]4(C)[C@]3(C)CC[C@@]2([C@@H](O)CNC(=O)C2(NC(=O)c3ccc(Cl)cc3)CCCCC2)CC1=O | 92HT599 |  | MT-2 | p24 / ELISA | <1 µM
CC(C)[C@H](NC(=O)C(Cc1ccccc1)CS(=O)(=O)CCO)C(=O)N[C@@H](Cc1ccccc1)[C@@H](O)[C@H](O)[C@H](Cc1ccccc1)NC(=O)[C@@H](NC(=O)C(Cc1ccccc1)CS(=O)(=O)CCO)C(C)C | D34 |  | PBLC | p24 | 6 µM
Cc1nnc(-c2ccc(C(=O)NCC[C@@]34CC[C@]5(C)[C@H](CC[C@@H]6[C@@]7(C)CC[C@H](OC(=O)[C@H]8C[C@@H](C(=O)O)C8(C)C)C(C)(C)[C@@H]7CC[C@]65C)C3=C(C(C)C)C(=O)C4)cc2)o1 | 92HT599 |  | MT-2 | p24 / ELISA | <1 µM
CC(C)[C@H](NC(=O)[C@@H](CC(=O)O)Cc1ccccc1)C(=O)N[C@@H](Cc1ccccc1)[C@@H](O)[C@H](O)[C@H](Cc1ccccc1)NC(=O)[C@@H](NC(=O)[C@@H](CC(=O)O)Cc1ccccc1)C(C)C | D34 |  | PBLC | p24 | >25 µM
CC(=O)N[C@@H](CSC(C)=O)C(=O)NCCSC(=O)c1ccccc1 | BaL |  | MDM | RT activity | <150 µM
COCC(=O)OC[C@@H]1C=C[C@H](n2cc(C)c(=O)[nH]c2=O)O1 | LAV |  | CEM-F + CEM | p24 / ELISA | 0.4 µg/mL
Nc1sccc1S(=O)(=O)c1ccccc1[N+](=O)[O-] | IIIB |  | CEM + CEM/O | cytopathic effect / MTT | 3.83 µg/mL
CC(=O)N[C@@H](CSC(=O)C(C)(C)C)C(=O)NCCSC(C)=O | BaL |  | MDM | RT activity | >150 µM
CC(C)C1=C2[C@H]3CC[C@@H]4[C@@]5(C)CC[C@H](OC(=O)[C@H]6C[C@@H](C(=O)O)C6(C)C)C(C)(C)[C@@H]5CC[C@@]4(C)[C@]3(C)CC[C@@]2([C@@H](O)CNC(=O)c2ccc(Cl)cc2O[C@@H]2CCOC2)CC1=O | 92HT599 |  | MT-2 | p24 / ELISA | <1 µM
CC(C)(C)S(=O)(=O)C[C@@H](Cc1cccc2ccccc12)C(=O)NCCC(=O)N[C@@H](Cc1ccccc1)[C@@H](O)[C@H](O)[C@H](Cc1ccccc1)NC(=O)CCNC(=O)[C@H](Cc1cccc2ccccc12)CS(=O)(=O)C(C)(C)C | D34 |  | PBLC | p24 | 10 µM
O=C(O)C(=O)/C=C(\O)c1cc(Cc2ccccc2)cn(Cc2cccc(Cl)c2F)c1=O |  |  | MAGI |  | 0.7 µM
CC(=O)N[C@@H](CS)C(=O)NCCS | BaL |  | MDM | RT activity | 40 µM
Cc1cn([C@H]2C=C[C@@H](COC(=O)C3=CN(C)C=CC3)O2)c(=O)[nH]c1=O | LAV |  | CEM-F + CEM | p24 / ELISA | <1 µg/mL
Cc1cc(C)c(CS(=O)c2cccc[n+]2[O-])c(C)c1 | IIIB |  | CEM/MOLT-4 + CEM | syncytia | >20 µg/mL
CC(C)C1=C2[C@H]3CC[C@@H]4[C@@]5(C)CC[C@H](OC(=O)[C@H]6C[C@@H](C(=O)O)C6(C)C)C(C)(C)[C@@H]5CC[C@@]4(C)[C@]3(C)CC[C@@]2(CC(=O)NCc2ccccc2)CC1=O | 92HT599 |  | MT-2 | p24 / ELISA | <1 µM
CC(C)[C@H](NC(=O)COc1cccc2ccccc12)C(=O)N[C@@H](Cc1ccccc1)[C@@H](O)[C@H](O)[C@H](Cc1ccccc1)NC(=O)[C@@H](NC(=O)COc1cccc2ccccc12)C(C)C | D34 |  | PBLC | p24 | 0.041 µM
COC(=O)c1ccccc1S(=O)(=O)c1ccsc1N | IIIB |  | CEM + CEM/O | cytopathic effect / MTT | 11 µg/mL
CC(C)(C)S(=O)(=O)C[C@@H](Cc1cccc2ccccc12)C(=O)N[C@H](C(=O)N[C@@H](Cc1ccccc1)[C@@H](O)[C@H](O)[C@H](Cc1ccccc1)NC(=O)[C@@H](NC(=O)[C@H](Cc1cccc2ccccc12)CS(=O)(=O)C(C)(C)C)C1CCCC1)C1CCCC1 | D34 |  | PBLC | p24 | 0.007 µM
O=C(O)C(=O)/C=C(\O)c1cc(Cc2ccccc2Cl)cn(Cc2ccc(F)cc2F)c1=O |  |  | MAGI |  | 0.8 µM
CC(C)C1=C2[C@H]3CC[C@@H]4[C@@]5(C)CC[C@H](OC(=O)[C@H]6C[C@@H](C(=O)O)C6(C)C)C(C)(C)[C@@H]5CC[C@@]4(C)[C@]3(C)CC[C@@]2(CC(=O)NCc2ccc3c(c2)OCO3)CC1=O | 92HT599 |  | MT-2 | p24 / ELISA | <1 µM
CC(C)=CCOc1cc(NC(=S)c2ccoc2C)ccc1Cl | NL4-3 (RT V106I) | RT-V106I | CEM + CEM-SS | cytopathic effect / XTT | 0.1 µM
CC(C)=CCN1CC(C)Cn2c(=S)[nH]c3cccc1c32 | 6S |  | CEM(SS) + CEM-SS | cytopathic effect / XTT | 1.29 µM
CN1N=C(N)c2cn([C@@H]3O[C@H](COP(=O)(O)O)[C@@H](O)[C@H]3O)c3ncnc1c23 | C |  | CEM + CEM-SS | cytopathic effect / XTT | 0.06 µM
O=C(O)C(=O)/C=C(\O)c1cc(Cc2ccccc2)cn(Cc2cccc(F)c2)c1=O |  |  | MAGI |  | 2 µM
Cc1cn([C@H]2C=C[C@@H](COC(=O)OC3CCCCC3)O2)c(=O)[nH]c1=O | LAV |  | CEM-F + CEM | p24 / ELISA | 0.6 µg/mL

The last 4 rows once more:

smiles,strain,changes,cell line,read by,value
CC(C)=CCN1CC(C)Cn2c(=S)[nH]c3cccc1c32,6S,,CEM(SS) + CEM-SS,cytopathic effect / XTT,1.29 µM
CN1N=C(N)c2cn([C@@H]3O[C@H](COP(=O)(O)O)[C@@H](O)[C@H]3O)c3ncnc1c23,C,,CEM + CEM-SS,cytopathic effect / XTT,0.06 µM
O=C(O)C(=O)/C=C(\O)c1cc(Cc2ccccc2)cn(Cc2cccc(F)c2)c1=O,,,MAGI,,2 µM
Cc1cn([C@H]2C=C[C@@H](COC(=O)OC3CCCCC3)O2)c(=O)[nH]c1=O,LAV,,CEM-F + CEM,p24 / ELISA,0.6 µg/mL

Blank or dashed fields: not listed here. ECn is the concentration giving n% inhibition of infection, replication or growth. Neighbouring rows are from separate reports.